Experimental data taken from PMC9728156.

Test system: H-NS
Experiment: DNase I footprinting
Details: 10 mM HEPES, 100 mM KCl, 200 uM EDTA, 10% glycerol, pH 7.5, 30 C 30 min, 200 ng DNA in 50 ul; then 50 ul of 10 mM MgCl2/5 mM CaCl2 and DNase I at room temperature 1 min; recombinant protein; residues 1-135; protein details: C-terminal His; label: 32P (FP-leuO-R end); probe letters rebuilt from the primers and the genome

GTCAGGAATAGATAACCTGTATTTCTTATATTTATCGCCCCCATCACTCTCAGGGCTCACTTCACTATCATTGAATTCATTGATGTTTAGCAACTAGATTGATAATTAATCACAATATTTTAGCCAATTATCATTTTTGTTGATTAAAAACATATATTTAAGCAAAACCTAAAAAACTATAAAAAACAGAAATACCCTCATAAGCAGCAATTATTGAGCTAAGTGATGTCTCATCACTTAACCCACTTAAAGCATTTATTACAACTATTGTTTAACCATCAAACCCAACAATCTCGTCAATATTAGCG (double strand) [leuO promoter 308 bp]
binding result: binds
